One compound from PMC9670689 (ACS Omega, 2022) can be followed below.

Structures are written as SMILES. Where only a bound is given, the exact number is not on record here.

In the data set the test system is highly pathogenic avian influenza A/chicken/Egypt/N12640A/2016(H5N1).

In the case of `CCC(CC)O[C@@H]1C=C(C(=O)O)C[C@H](N)[C@H]1NC(C)=O` [oseltamivir carboxylate], the “SI (CC50/IC50)” value is on record as > 11,561.
